We go through 21 compounds from PubChem BioAssay AID1794808 (University of Kansas High Throughput Screening Laboratory, 2022).

The structures appear in SMILES notation. The list shows a part of the results, in another mix than the full data. Activity calls are given as the source filed them. Rule as the data show it: active = inhibition above about 50%; inactive = the rest.

The assay has as its system Plasmodium falciparum apicoplast DNA polymerase (apPOL). Put plainly: Pf-apPOL inhibitors, biochemical, fluorescence (AID 1794808). Particulars: Recombinant Pf-apPOL, molecular beacon fluorescence, 1.5 h; at 10 µM; hits give high values.
By inhibition is commonly meant the change of the read-out against control, counted positive when it falls. As to `Cc1ccccc1NC1CC(C)(C)NC(C)(C)C1`, the inhibition was inactive: 0.4%.

As for `N#CC1(Nc2ccccc2)CCN(Cc2ccccc2)CC1`, the inhibition is inactive: -6.7%.

On to `COc1ccc(NC2CCN(CCc3ccccc3)CC2)c(OC)c1`, for which the inhibition is inactive: -0.1%.

In the case of `CCCN1CCC(Nc2ccc(F)cc2)CC1`, the inhibition is inactive: -0.1%.

As for `CCN1CCC(Nc2ccc(Cl)cc2)CC1`, the inhibition is inactive: -1.9%.

As to `COc1ccc(NC2CCN(C(=O)OC(C)(C)C)CC2)cc1`, the inhibition was inactive: 0.6%.

Turning to `O=S1(=O)CC(Cl)C(SC2CS(=O)(=O)CC2Cl)C1` (stereo unspecified), the inhibition is inactive: 3.9%.

Regarding `NC(=O)C1(Nc2ccccc2)CCN(Cc2ccccc2)CC1`, the inhibition was inactive: -7.6%.

For the compound `CN1CCC(Nc2ccc(F)cc2)CC1`, the inhibition is inactive: -2.8%.

Regarding `CCOC(=O)N1CCC(Nc2ccc(C)cc2)CC1`, the inhibition is inactive: 5.7%.

In the case of `CC(=O)N1CCN(C/C=C/c2ccccc2[N+](=O)[O-])CC1`, the inhibition was inactive: -5.3%.

With `CCCN1CCC(Nc2ccccc2F)CC1`, the inhibition was inactive: 6.7%.

`CCCN1CCC(Nc2cc(OC)cc(OC)c2)CC1`: the inhibition is inactive: -7.5%.

Turning to `Clc1ccc(NC2CCN(Cc3ccccc3)CC2)cc1`, the inhibition was inactive: -2.5%.

On to `Fc1cccc(NC2CCN(CCc3ccccc3)CC2)c1`, for which the inhibition was inactive: 1.4%.

Take `Fc1ccccc1NC1CCN(Cc2ccccc2)CC1`: the inhibition was inactive: -10.2%.

Take `CC(C)N1CCC(N(C(=O)Cc2ccccc2)c2ccc(Cl)cc2)CC1`: the inhibition is inactive: 15.3%.

Regarding `CCN1CCC(Nc2ccc(F)cc2)CC1`, the inhibition is inactive: -0.6%.

Consider `CCN1CCC(Nc2cccc(F)c2)CC1`, for which the inhibition was inactive: 2.5%.

For `CN1CCC(Nc2ccc(F)c(Cl)c2)CC1`, the inhibition is inactive: 2.2%.

Consider `CN1CCC(Nc2ccc(Cl)cc2)CC1`, for which the inhibition was inactive: -2.9%.
